Anti-infective test results gathered from many reports (values: NIAID ChemDB through PubChem).

Shared fields: growth or infection tests; measure: MIC

An empty or dashed field is not shown. Lines come from different laboratories, so protocols vary.

{"SMILES": "CO[C@@]1(NC(=O)C(C(=O)O)c2ccc(O)cc2)C(=O)N2C(C(=O)O)=C(CSc3nnnn3C)CO[C@@H]21", "strain": "1261", "organism": "Mycobacterium fortuitum", "value": "25 µg/mL"}
{"SMILES": "CC[C@H]1OC(=O)[C@H](C)[C@@H](OC2C[C@@](C)(OC)[C@@H](OC(=O)Cc3ccccc3)[C@H](C)O2)[C@H](C)[C@@H](O[C@@H]2O[C@H](C)C[C@H](N(C)C)[C@H]2O)C(C)(O)C[C@@H](C)/C(=N\\OCCCOc2ccccc2)[C@H](C)[C@@H](O)[C@]1(C)O", "strain": "20096 (clarithromycin-resistant)", "organism": "Mycobacterium avium complex", "value": "3.13 µg/mL"}
{"SMILES": "COc1ccccc1-c1c(-c2ccc(OCC(=O)NN)cc2O)n[nH]c1C(F)(F)F", "read by": "visual reading", "organism": "Mycobacterium marinum", "value": ">50 µg/mL"}
{"SMILES": "CO[C@H]1/C=C/O[C@@]2(C)Oc3c(C)c(O)c4c(O)c(c(/C=N/N5CCN(C6CCCC6)CC5)c(O)c4c3C2=O)NC(=O)/C(C)=C\\C=C\\[C@H](C)[C@H](O)[C@@H](C)[C@@H](O)[C@@H](C)[C@H](OC(C)=O)[C@@H]1C", "strain": "12-Feb", "organism": "Mycobacterium avium intracellulare", "value": "0.25 µg/mL"}
{"SMILES": "CO[C@@]1(NC(=O)C2SC(=C(C(N)=O)C(=O)[O-])S2)C(=O)N2C(C(=O)[O-])=C(CSc3nnnn3C)CS[C@@H]21", "strain": "1030-8", "organism": "Mycobacterium fortuitum", "value": "50 µg/mL"}
{"SMILES": "NNC(=O)COc1ccc(-c2n[nH]c(C(F)(F)F)c2-c2ccc(Cl)cc2)c(O)c1", "read by": "visual reading", "organism": "Mycobacterium marinum", "value": ">50 µg/mL"}
{"SMILES": "CO[C@@]1(NC(=O)CCCC(N)C(=O)O)C(=O)N2C(C(=O)O)=C(COC(C)=O)CSC21", "strain": "1261", "organism": "Mycobacterium fortuitum", "value": ">100 µg/mL"}
{"SMILES": "CCO/N=C1\\[C@H](C)CC(C)(O)[C@H](O[C@@H]2O[C@H](C)C[C@H](N(C)C)[C@H]2O)[C@@H](C)[C@H](OC2C[C@@](C)(OC)[C@@H](O)[C@H](C)O2)[C@@H](C)C(=O)O[C@H](CC)[C@@](C)(O)[C@H](O)[C@H]1C", "strain": "20039 (clarithromycin-susceptible)", "organism": "Mycobacterium avium complex", "value": "3.13 µg/mL"}
{"SMILES": "CC(C)N=C(N)/N=C(\\N)NOCCCOc1cc(Cl)c(Cl)cc1Cl", "strain": "1753", "organism": "Mycobacterium avium complex", "value": "32 µg/mL"}
{"SMILES": "C=C(C)COc1ccc(-c2n[nH]c(C(F)(F)F)c2-c2ccc(Cl)cc2)c(O)c1", "read by": "visual reading", "organism": "Mycobacterium marinum", "value": ">50 µg/mL"}
{"SMILES": "CCCCCCCCCCCCC(=O)O[C@H]1[C@H](C)[C@@H](O[C@@H]2O[C@H](C)C[C@H](N(C)C)[C@H]2O)C(C)(O)C[C@@H](C)/C(=N\\OCCCOc2ccccc2)[C@H](C)[C@@H](O)[C@](C)(O)[C@@H](CC)OC(=O)[C@@H]1C", "strain": "20066 (clarithromycin-susceptible)", "organism": "Mycobacterium avium intracellulare", "value": ">50 µg/mL"}
{"SMILES": "CO[C@@]1(NC(=O)CSCC#N)C(=O)N2C(C(=O)O)=C(CSc3nnnn3C)CS[C@@H]21", "strain": "1045", "organism": "Mycobacterium fortuitum", "value": "50 µg/mL"}
{"SMILES": "CC[C@H]1OC(=O)[C@H](C)[C@@H](OC(=O)Cc2ccc[nH]2)[C@H](C)[C@@H](O[C@@H]2O[C@H](C)C[C@H](N(C)C)[C@H]2O)C(C)(O)C[C@@H](C)/C(=N\\OCCCOc2ccccc2)[C@H](C)[C@@H](O)[C@]1(C)O", "strain": "20066 (clarithromycin-susceptible)", "organism": "Mycobacterium avium intracellulare", "value": "1.56 µg/mL"}
{"SMILES": "CO[C@@]1(NC(=O)Cc2cccs2)C(=O)N2C(C(=O)O)=C(COC(N)=O)CS[C@@H]21", "strain": "4-May", "organism": "Mycobacterium fortuitum", "value": "25 µg/mL"}
{"SMILES": "COc1ccc(-c2c(-c3ccc(OCc4ccc([N+](=O)[O-])cc4)cc3O)n[nH]c2C(F)(F)F)cc1", "read by": "visual reading", "organism": "Mycobacterium marinum", "value": "50 µg/mL"}
{"SMILES": "CCCCCCCCC(=O)O[C@H]1[C@H](C)OC(O[C@H]2[C@H](C)[C@@H](O[C@@H]3O[C@H](C)C[C@H](N(C)C)[C@H]3O)C(C)(O)C[C@@H](C)/C(=N\\OCCCOc3ccccc3)[C@H](C)[C@@H](O)[C@](C)(O)[C@@H](CC)OC(=O)[C@@H]2C)C[C@@]1(C)OC", "strain": "20039 (clarithromycin-susceptible)", "organism": "Mycobacterium avium complex", "value": "0.78 µg/mL"}

For reference, 2 entries again:

SMILES	strain	read by	organism	value
CO[C@@]1(NC(=O)C(C(=O)O)c2ccc(O)cc2)C(=O)N2C(C(=O)O)=C(CSc3nnnn3C)CO[C@@H]21	1261	-	Mycobacterium fortuitum	25 µg/mL
CO[C@@]1(NC(=O)CSCC#N)C(=O)N2C(C(=O)O)=C(CSc3nnnn3C)CS[C@@H]21	1045	-	Mycobacterium fortuitum	50 µg/mL